Values quoted from earlier work in patent US5468499A, “Liposomes containing the salt of phosphoramide mustard and related compounds” (Ohio State University, priority 1993, dated 1995).

Assays:
[1] = tested on: tumor; conditions: cited from earlier work
[2] = cited from earlier work

SMILES: NP(=O)(O)N(CCCl)CCCl
- anti-tumor effect among cyclophosphamide metabolites [1]: greatest anti-tumor effect

SMILES: C=CC=O
- side effects among cyclophosphamide metabolites [1]: produces the most side effects

SMILES: O=P(O)(NCCCl)NCCCl
- water solubility [2]: quite water-soluble
- stability in aqueous solutions ([2]; versus phosphoramide mustard): more unstable in aqueous solutions than the phosphoramide mustard
